The values below come from patent US20260183277A1, “ANTIVIRAL PHARMACEUTICAL COMPOSITION COMPRISING ERRy INHIBITOR AS ACTIVE INGREDIENT” (priority 2024, published 2026).

The subject of one experiment is SARS-CoV-2 KCDC03. Nature of the experiment: In vitro antiviral activity against SARS-CoV-2 (viral yield by cell culture immunofluorescence assay, cytotoxicity by MTT). The settings on record: from CC50 and IC50. It counts as cell-based.
Experiment [1] concerns influenza A virus (IAV) PR8 strain. Nature of the experiment: In vitro antiviral activity against IAV. It is filed as cell-based. The note with it: from CC50 and IC50.

Molecules are shown by their SMILES.

As to `CC(C)N1CCN(c2ccc(/C(=C(/CCCO)c3ccccc3)c3ccc(O)cc3)cc2)CC1` [DN200434], the selectivity index (SI) in the experiment on SARS-CoV-2 KCDC03 is 50; in experiment [1] it was 34.
